The values below come from patent publication US11479582B2 (KING FAISAL UNIVERSITY, dated 2022).

For assay [1], the target named is SARS-CoV-2 spike (S) protein, expressed from a synthetic S gene (SARS-CoV-2, UniProt P0DTC2). Briefly: cell-based or functional assay.
The target of assay [2] is SARS-CoV-2 spike (S) protein on replication-competent SARS-CoV-2 (SARS-CoV-2, UniProt P0DTC2). Briefly: cell-based or functional assay.

With HRLRQIRGIRARVVQIQKEIWRLNEVAKLLNESLIYLQE [peptide #125 (mutated HR2 39-mer, 'High Affinity')], in assay [1], the “IC50, SARS-CoV-2 Spike-mediated cell-cell fusion” value was 4.4 µM; the “IC50, SARS-CoV-2 pseudovirus infection in Calu-3 cells” value was determined as 1.2 µM; the “IC50, SARS-CoV-2 pseudovirus infection in VeroE6” value stood at 2.4 µM; the “IC50, TMPRSS2-dependent plasma membrane pathway in VeroE6-TMPRSS2” value was 1.7 µM. Further, in assay [2], the “IC50, SARS-CoV-2 RNA quantification” value was 0.16 µM and the “IC50, SARS-CoV-2 plaques inhibition assay” value was 0.46 µM.
